Data as given in patent US20080201790A1 (published 2008).

Biological target: T1, MEKKCOOH (protein encoded by p-MEKKCOOH, expressed in COS cells) (mouse, UniProt P53349 1174-1493)
T1 construct: also called MEKK1COOH
T1 sequence: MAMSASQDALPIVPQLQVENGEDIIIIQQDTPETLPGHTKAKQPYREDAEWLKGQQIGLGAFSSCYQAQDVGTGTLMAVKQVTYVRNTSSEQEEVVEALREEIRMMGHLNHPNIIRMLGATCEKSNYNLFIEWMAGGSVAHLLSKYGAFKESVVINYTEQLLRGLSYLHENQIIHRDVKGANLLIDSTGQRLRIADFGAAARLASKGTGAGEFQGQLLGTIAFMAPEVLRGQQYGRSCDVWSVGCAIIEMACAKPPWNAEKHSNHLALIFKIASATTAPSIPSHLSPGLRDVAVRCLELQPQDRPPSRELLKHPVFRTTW
Assay: GST agarose pull-down from COS cell lysate, anti-MEKK immunoblot

B1: GST agarose (control) (other, UniProt P08515 1-218, looked up)
chain: MSPILGYWKIKGLVQPTRLLLEYLEEKYEEHLYERDEGDKWRNKKFELGLEFPNLPYYIDGDVKLTQSMAIIRYIADKHNMLGGCPKERAEISMLEGAVLDIRYGVSRIAYSKDFETLKVDFLSKLPEMLKMFEDRLCHKTYLNGDHVTHPDFMLYDALDVVLYMDPMCLDAFPKLVCFKKRIEAIPQIDKYLKSSKYIAWPLQGWQATFGGGDHPPK
notes: Negative control for the Ras pull-downs
binding result: no binding
